Mutational scan of HIV-1 Vif (LAI) in cells with APOBEC3G

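Pooled viruses with one designed change each in Vif went through two 72 h rounds in SupT1 cells expressing APOBEC3G. Frequencies after the second round, in three biological replicates, were compared with the merged pool after the first round. Changes do not touch integrase, since the pol overlap was removed.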

Protein: Vif of HIV-1 LAI (a laboratory-adapted subtype B strain). Residues 12-115 were scanned and are shown below; the first letter is residue 12.
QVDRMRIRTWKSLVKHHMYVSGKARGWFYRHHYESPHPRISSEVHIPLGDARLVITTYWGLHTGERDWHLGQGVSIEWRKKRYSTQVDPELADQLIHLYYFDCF

Values are log2 enrichment relative to wild type (0); lower means weaker defence against APOBEC3G and poorer growth.
Each entry names the wild-type residue, its position and the residue put in its place.
All changes here are to glycine.
The median of three replicates is given, with the replicates in brackets.
Input reads are the counts in the merged round-one pool, before selection.
Some changes are missing from the data or left out.
The scan is noisy: the rank correlation of replicates is about 0.4 to 0.65, and variants with under about 50 input reads tend to read too high.
The authors note that some positive scores may be noise, and some enriched variants failed when tested singly.

V13G (input reads 306): -0.77 (-0.77 / 2.03 / -1.23).
R15G (input reads 477): -2.48 (-1.88 / -2.78 / -2.48).
M16G (input reads 482): -2.60 (-2.18 / -4.21 / -2.60).
T20G (input reads 433): -2.85 (-1.71 / -4.03 / -2.85).
W21G (input reads 84): 0.17 (0.17 / -1.38 / 3.92).
K22G (input reads 538): -1.35 (-1.79 / 2.04 / -1.35).
S23G (input reads 775): 1.81 (1.81 / 1.89 / -1.15).
L24G (input reads 195): -2.62 (-2.17 / -4.17 / -2.62).
K26G (input reads 374): -1.16 (-1.27 / 1.70 / -1.16).
H27G (input reads 477): -1.06 (2.95 / -2.92 / -1.06).
H28G (input reads 443): -2.66 (-2.66 / -4.23 / -1.96).
M29G (input reads 1290): -1.82 (-1.41 / -3.58 / -1.82).
Y30G (input reads 348): -0.75 (-0.39 / -2.61 / -0.75).
V31G (input reads 971): 1.48 (2.85 / 1.48 / -0.25).
A35G (input reads 32): -0.81 (-0.81 / -1.60 / 1.36).
R36G (input reads 1025): -1.11 (-1.11 / 0.18 / -2.41).
F39G (input reads 446): -2.38 (-2.99 / -0.15 / -2.38).
Y40G (input reads 1522): -3.36 (-3.09 / -3.63 / -3.36).
R41G (input reads 235): 0.61 (0.61 / -1.21 / 4.02).
H42G (input reads 498): -3.34 (-2.21 / -4.13 / -3.34).
H43G (input reads 418): -4.18 (-2.61 / -4.37 / -4.18).
E45G (input reads 121): 0.66 (5.20 / -0.85 / 0.66).
S46G (input reads 648): -1.36 (-1.36 / 0.15 / -2.42).
P47G (input reads 364): -2.25 (-1.23 / -4.19 / -2.25).
P49G (input reads 1016): -2.45 (1.06 / -3.42 / -2.45).
R50G (input reads 700): -1.01 (0.62 / -2.28 / -1.01).
S52G (input reads 91): -0.33 (2.01 / -0.33 / -0.44).
S53G (input reads 358): -2.84 (-2.63 / -5.50 / -2.84).
E54G (input reads 463): -3.84 (-3.41 / -3.84 / -3.88).
V55G (input reads 275): -1.22 (-1.22 / 1.63 / -1.29).
I57G (input reads 1698): -1.01 (-1.01 / -0.32 / -1.25).
P58G (input reads 283): -1.31 (-0.65 / -2.45 / -1.31).
L59G (input reads 497): -1.29 (-0.49 / -2.28 / -1.29).
D61G (input reads 89): 0.24 (0.24 / -1.34 / 0.82).
A62G (input reads 307): -0.89 (-0.89 / -1.82 / 2.59).
V65G (input reads 71): 0.17 (0.17 / 4.88 / -0.25).
I66G (input reads 34): 0.99 (0.99 / 5.08 / -0.11).
T67G (input reads 539): -1.91 (-1.91 / 1.82 / -2.80).
T68G (input reads 34): -0.16 (-0.16 / 5.46 / -0.58).
Y69G (input reads 878): -3.70 (-3.43 / -4.21 / -3.70).
L72G (input reads 366): -0.92 (-0.92 / 1.89 / -1.38).
H73G (input reads 506): -0.87 (-0.53 / -2.74 / -0.87).
T74G (input reads 713): -2.28 (-2.18 / -2.28 / -2.54).

The last 3 entries again:

With L72G (input reads 366) the assay gave -0.92 (-0.92 / 1.89 / -1.38).
With H73G (input reads 506) the assay gave -0.87 (-0.53 / -2.74 / -0.87).
With T74G (input reads 713) the assay gave -2.28 (-2.18 / -2.28 / -2.54).

From the data files of Langley et al. 2025, preprint, doi:10.1101/2025.10.20.683452.